Measured values reported in patent publication US20260063625A1, “COMPOSITIONS FOR AND METHODS OF DETECTING FOOD TOXINS” (priority 2022, published 2026).
Positions count from the first letter of the chain named. Names may count otherwise.

B1: Y558A: RcSxph mutant, alanine for tyrosine at position 558 (protein)
chain: MAPTFQTALFFTIISLSFAAPNAKQVRWCAISDLEQKKCNDLVGSCNVPDITLVCVLRSSTEDCMTAIKDGQADAMFLDSGEVYEASKDPYNLKPIIAEPYSSNRDLQKCLKERQQALAKKMIGHYIPQCDEKGNYQPQQCHGSTGHCWCVNAMGEKISGTNTPPGQTRATCERHELPKCLKERQVALGGDEKVLGRFVPQCDEKGNYEPQQFHGSTGYSWCVNAIGEEIAGTKTPPGKIPATCQKHDLVTTCHYAVAMVKKSSAFQFNQLKGKRSCHSGVSKTDGWKALVTVLVEKKLLSWDGPAKESIQRAMSKFFSVSCIPGATQTNLCKQCKGEEGKNCKNSHDEPYYGNYGAFRCLKEDMGDVAFLRSTALSDEHSEVYELLCPDNTRKPLNKYKECNLGTVPAGTVVTRKISDKTEDINNFLMEAQKRQCKLFSSAHGKDLMFDDSTLQLALLSSEVDAFLYLGVKLFHAMKALTGDAHLPSKNKVRWCTINKLEKMKCDDWSAVSGGAIACTEASCPKGCVKQILKGEADAVKLEVQYMYEALMCGLLPAVEEYHNKDDFGPCKTPGSPATDFGTLRAVALVKKSNKDINWNNIKGKKSCHTGVGDIAGWVIPVSLIRRQNDNSDIDSFFGESCAPGSDTKSNLCKLCIGDPKNSAANTKCSLSDKEAYYGNQGAFRCLVEKGDVAFVPHTVVFENTDGKNPAVWAKNLKSEDFELLCLDGSRAPVSNYKSCKLSGIPPPAIVTREESISDVVRIVANQQSLYGRKGFEKDMFQLFSSNKGNNLLFNDNTQCLITFDRQPKDIMEDYFGKPYYTTVYGASRSAMSSELISACTIKHC
B2: Y558I: RcSxph mutant, isoleucine for tyrosine at position 558 (protein)
chain: B1 chain with A577I

Experiment: Isothermal titration calorimetry (ITC) of STX into Sxph
Details: 25° C., single binding site model

| Molecule | N (sites), stoichiometry |
| --- | --- |
| B1 | 1.01 ± 0.01 sites |
| B2 | 1.05 ± 0.03 sites |
